Biological target: M2 protein of influenza A/Solomon Islands/3/06 (H1N1), on inactivated whole virions (influenza A virus A/Solomon …)
Test: ELISA, positive control antibody on inactivated whole virions

B1: TCN-032 (8I10) (antibody, V domains shown)
VH: QVQLQESGPGLVKPSETLSLTCTVSGSSISNYYWSWIRQSPGKGLEWIGFIYYGGNTKYNPSLKSRVTISQDTSKSQVSLTMSSVTAAESAVYFCARASCSGGYCILDYWGQGTLVTVS
VL: DIQMTQSPSSLSASVGDRVTITCRASQNIYKYLNWYQQRPGKAPKGLISAASGLQSGVPSRFSGSGSGTDFTLTITSLQPEDFATYYCQQSYSPPLTFGGGTRVEIK
ELISA virus binding (OD450): 3.61 OD450

Reference: US20150104459A1, “Compositions and Methods for the Therapy and Diagnosis of Influenza” (published 2015)
